Experimental findings from US20050271676A1, “Inducing cellular immune responses to human immunodeficiency virus-1 using peptide and nucleic acid compositions” (Epimmune Inc., priority 1993, published 2005) are described below.

Sequences of proteins named here, by UniProt entry; tags and fusion partners are left off. A change or cut given only in a name is not applied to a line headed by its entry. Residues count along the entry.
UniProt P04439: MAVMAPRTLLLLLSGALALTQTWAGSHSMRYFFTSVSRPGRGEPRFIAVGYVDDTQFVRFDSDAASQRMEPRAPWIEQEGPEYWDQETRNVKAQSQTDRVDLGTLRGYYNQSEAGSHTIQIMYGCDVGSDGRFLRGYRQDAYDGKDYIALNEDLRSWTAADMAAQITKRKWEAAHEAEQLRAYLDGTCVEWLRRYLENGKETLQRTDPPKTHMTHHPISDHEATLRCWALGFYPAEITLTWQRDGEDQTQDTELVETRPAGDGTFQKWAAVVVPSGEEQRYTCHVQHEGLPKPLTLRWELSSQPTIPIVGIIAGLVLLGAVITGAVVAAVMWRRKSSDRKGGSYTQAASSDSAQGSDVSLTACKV
UniProt Q30154, 30-266: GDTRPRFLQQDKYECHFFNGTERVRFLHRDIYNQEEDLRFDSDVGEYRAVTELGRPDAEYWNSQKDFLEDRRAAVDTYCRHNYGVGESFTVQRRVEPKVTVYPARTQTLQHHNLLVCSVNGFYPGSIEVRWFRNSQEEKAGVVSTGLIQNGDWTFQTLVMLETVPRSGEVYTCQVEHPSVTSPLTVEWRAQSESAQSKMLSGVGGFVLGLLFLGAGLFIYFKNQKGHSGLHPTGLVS

Bounds are passed on as bounds.

Assay [1] addresses HLA-A*0203 (Homo sapiens, UniProt P04439, A173T/D140Y/D185E/D98H/E277Q/G131W/G231S/I119V/I121R/I166T/I218V/L180W/L300P/L318F/N151K/N90K/P208A/P217A/Q86G/Q94H/R138H/R169H/T345S). The assay is described as follows: purified HLA class I binding assay, A*0203.
In assay [2] the target is HLA-A*0201 (Homo sapiens, UniProt P04439, D140Y/D185E/D98H/E176V/E277Q/G131W/G231S/I119V/I121R/I166T/I218V/L300P/L318F/N151K/N90K/P208A/P217A/Q86G/Q94H/R138H/R169H/T345S). The assay is described as follows: purified HLA class I binding assay, A*0201.
Assay [3] addresses HLA-A*3101 (Homo sapiens, UniProt P04439, A270S/D185E/E176V/E277Q/F33T/G231S/G80R/H175R/I121M/I218V/I322F/K168Q/L300P/L318F/M331R/P217A/Q94H/R138Q/T323A/T345S/T97I/V358M). The assay is described as follows: purified HLA class I binding assay, A*3101.
The target of assay [4] is T1, HLA-DRB1*0401 (DR4w4) (Homo sapiens, UniProt P01903+P01911, A100K/A169T/F76Y/I96L/K127E/L162R/M171V/N62H/P40V/Q125Y/R42H/S133A/S149N/S66Y/V115G/V209L/W38E).
T1 construct: endogenous in cells; host or cells: Preiss
The assay is described as follows: purified HLA class II binding assay, DRB1*0401 (DR4w4).

Assay [5] has as its target T2, HLA-DRB1*0802 (DR8w2) (Homo sapiens, UniProt P01903+P01911, A100R/A103L/A169T/F76Y/H45Y/I96F/K41T/L162R/M171V/P40S/Q125H/Q178H/Q39Y/Q99D/R218S/R42G/S66Y/V115G/W38E).
T2 construct: endogenous in cells
The assay is described as follows: biochemical. The format is binding.

The target in assay [6] is T3, HLA-DRB1*0301 (DR3) (Homo sapiens, UniProt P01903+P01911, A100K/A102G/A103R/A169T/F55Y/I96L/K41T/L162R/M171V/P40S/Q125H/Q178H/Q39Y/R42S/S66N/T106N/T262R/W38E/Y61H).
T3 construct: endogenous in cells; host or cells: MAT
The assay can be described thus: purified HLA class II binding assay, DRB1*0301 (DR3), pH 4.5.

In assay [7] the target is T4, HLA-DRB1*0901 (DR9) (Homo sapiens, UniProt P01903+P01911, A100R/A103E/D57H/D86V/F55Y/F60I/F76Y/I96F/K127E/L162R/M171V/P40D/Q125H/Q99R/R33Q/R42F/S133A/S66N/T210M/V115G/W38K/Y107V/Y59G/Y89S).
T4 construct: endogenous in cells
The assay is described as follows: biochemical. The format is binding.

For assay [8], the target named is T5, HLA-DRB1*1201 (DR5w12) (Homo sapiens, UniProt P01903+P01911, A100R/A169T/D57E/D86V/F55L/H45Y/K41T/L162R/M171V/P40S/Q125H/Q178H/Q39Y/Q99D/R42G/S66L/T262R/V114A/V67L/W38E/Y59H/Y61H/Y89S).
T5 construct: endogenous in cells
The assay can be described thus: purified HLA class II binding assay, DRB1*1201 (DR5w12).

Assay [9] concerns the target T6, HLA-DRB1*0701 (DR7) (Homo sapiens, UniProt P01903+P01911, A100R/A102G/A103Q/D57E/D86V/E43K/F76Y/K127E/L162R/M171V/P40G/Q125H/Q99D/R33Q/R42Y/R54Q/S133A/S66F/T210M/V115G/Y107V/Y59L/Y89S).
T6 construct: endogenous in cells; host or cells: Pitout
The assay can be described thus: biochemical. The assay is classed as binding.

The target in assay [10] is HLA-DRB1*1302 (DR6w19) (Homo sapiens, UniProt P01903+P01911, A100E/A169T/K41T/L162R/M171V/P40S/Q125H/Q178H/Q39Y/Q99D/R42S/S66N/T262R/V115G/W38E/Y61H). The assay can be described thus: purified HLA class II binding assay, DRB1*1302 (DR6w19).
Assay [11] concerns the target T7, HLA-DRB5*0101 (DR2w2β2) (Homo sapiens, UniProt P01903+Q30154).
T7 construct: expressed in transfected cells
The format is binding.

Turning to `CC(C)C[C@H](NC(=O)[C@@H](N)[C@@H](C)O)C(=O)N[C@@H](Cc1c[nH]c2ccccc12)C(=O)N[C@@H](CCC(N)=O)C(=O)N[C@@H](CCCNC(=N)N)C(=O)N1CCC[C@H]1C(=O)N[C@@H](CC(C)C)C(=O)N[C@H](C(=O)N[C@H](C(=O)O)[C@@H](C)O)C(C)C` [25.0046], the IC50 in assay [1] is 2.5 µM; in assay [2], 0.27 µM.

Compound `CC[C@H](C)[C@H](NC(=O)[C@H](CCCCN)NC(=O)[C@@H](NC(=O)[C@@H](NC(=O)[C@@H](N)C(C)C)[C@@H](C)O)[C@@H](C)CC)C(=O)NCC(=O)NCC(=O)N[C@@H](CCC(N)=O)C(=O)N[C@@H](CC(C)C)C(=O)N[C@@H](CCCCN)C(=O)O` [1273.09] registered an IC50 in assay [3] of 10.6 µM.

On to `CC[C@H](C)[C@H](NC(=O)CNC(=O)[C@H](Cc1c[nH]c2ccccc12)NC(=O)[C@@H](NC(=O)[C@@H](NC(=O)[C@H](CC(C)C)NC(=O)[C@H](CCC(N)=O)NC(=O)[C@H](CC(C)C)NC(=O)[C@H](CC(C)C)NC(=O)[C@H](Cc1c[nH]cn1)NC(=O)[C@@H](N)CCC(N)=O)[C@@H](C)O)C(C)C)C(=O)N[C@@H](CCCCN)C(=O)N[C@@H](CCC(N)=O)C(=O)N[C@@H](CC(C)C)C(=O)N[C@@H](CCC(N)=O)C(=O)O` [Peptide 27.0297], for which the 50% inhibitory concentration (IC50) in [4] turned out to be 1.32 µM.

For `CC[C@H](C)[C@H](NC(=O)[C@H](C)NC(=O)[C@H](CCC(N)=O)NC(=O)[C@H](Cc1c[nH]cn1)NC(=O)[C@@H](NC(=O)[C@H](CCSC)NC(=O)[C@H](CCC(N)=O)NC(=O)CNC(=O)[C@@H](N)CCC(N)=O)C(C)C)C(=O)N[C@@H](CO)C(=O)N1CCC[C@H]1C(=O)N[C@@H](CCCNC(=N)N)C(=O)N[C@H](C(=O)N[C@@H](CC(C)C)C(=O)N[C@@H](CC(N)=O)C(=O)O)[C@@H](C)O` [Peptide 27.0304], the IC50 in assay [5] was 7.31 µM.

On to `CC[C@H](C)[C@H](NC(=O)[C@H](CO)NC(=O)[C@@H]1CCCN1C(=O)[C@@H](NC(=O)[C@@H](NC(=O)[C@H](Cc1ccccc1)NC(=O)[C@H](C)NC(=O)[C@@H](NC(=O)[C@H](Cc1ccc(O)cc1)NC(=O)[C@H](CCCCN)NC(=O)[C@H](CCCNC(=N)N)NC(=O)[C@@H](N)Cc1ccccc1)[C@@H](C)O)[C@@H](C)O)[C@@H](C)CC)C(=O)N[C@@H](CC(N)=O)C(=O)N[C@@H](CC(N)=O)C(=O)N[C@@H](CCC(=O)O)C(=O)O` [Peptide 27.0341], for which the IC50 in assay [6] is above 20 µM; in assay [7], 0.039 µM; in assay [4], 0.294 µM; in assay [8], above 20 µM; in assay [9] it was 0.03 µM; in [10], above 20 µM.

As for `CC(C)C[C@H](NC(=O)[C@H](CCCCN)NC(=O)[C@@H](NC(=O)[C@H](CC(C)C)NC(=O)[C@@H]1CCCN1C(=O)[C@@H]1CCCN1C(=O)[C@@H](NC(=O)[C@H](CC(N)=O)NC(=O)[C@@H](NC(=O)[C@H](Cc1ccccc1)NC(=O)[C@H](CCC(=O)O)NC(=O)[C@@H](N)Cc1c[nH]c2ccccc12)C(C)C)[C@@H](C)O)C(C)C)C(=O)N[C@@H](Cc1c[nH]c2ccccc12)C(=O)N[C@@H](Cc1ccc(O)cc1)C(=O)N[C@@H](CCC(N)=O)C(=O)O` [Peptide 27.0354], in assay [6], the IC50 came out at 13.6 µM.

Take `CC[C@H](C)[C@H](NC(=O)[C@H](Cc1ccccc1)NC(=O)[C@@H](NC(=O)[C@H](C)NC(=O)[C@H](CCSC)NC(=O)[C@H](CCC(N)=O)NC(=O)[C@@H](NC(=O)[C@H](C)NC(=O)[C@@H](NC(=O)[C@@H](N)CCCCN)[C@@H](C)O)C(C)C)C(C)C)C(=O)N[C@@H](Cc1c[nH]cn1)C(=O)N[C@@H](CC(N)=O)C(=O)N[C@@H](Cc1ccccc1)C(=O)N[C@@H](CCCCN)C(=O)N[C@@H](CCCNC(=N)N)C(=O)O` [Peptide 27.0373]: the IC50 in [8] turned out to be 18.6 µM; in assay [5], 1.44 µM.

The compound `CC(C)[C@H](NC(=O)[C@H](Cc1ccc(O)cc1)NC(=O)[C@H](Cc1ccccc1)NC(=O)[C@@H](NC(=O)[C@H](CCC(=O)O)NC(=O)[C@H](C)N)[C@@H](C)O)C(=O)N[C@@H](CC(=O)O)C(=O)NCC(=O)N[C@@H](C)C(=O)N[C@@H](C)C(=O)N[C@@H](CC(N)=O)C(=O)N[C@@H](CCCNC(=N)N)C(=O)N[C@@H](CCC(=O)O)C(=O)N[C@H](C(=O)N[C@@H](CCCCN)C(=O)O)[C@@H](C)O` [Peptide 35.0125] displayed an IC50 in assay [6] of 0.769 µM.

For the compound ASDFNLPPVVAKEIY, the DR4w4 binding in assay [4] (HIV DR super motif peptides, unit not given) is listed as −0.0028. In [9], this compound gave a DR7 binding of 0.0840. The same compound yielded a DR2w2β2 binding in assay [11] of −0.0021.
